Laboratory results reported in patent publication US8383617B2, “Treatment of protein aggregation diseases” (priority 2007, dated 2013).

Sequences of proteins named here, by UniProt entry; tags and fusion partners are left off. Residues count along the entry.
UniProt P05067, 672-711: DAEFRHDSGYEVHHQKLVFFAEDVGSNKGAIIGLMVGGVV

Biological target: Synthetic beta-amyloid peptide 1-40 (Homo sapiens, UniProt P05067)
Experiment: Seprion assay screen for compounds that affect amyloid aggregation
Assay type: biochemical

Structure (SMILES): OCCN1CCN(CCCN2c3ccccc3Sc3ccc(C(F)(F)F)cc32)CC1 [Fluphenazine, fluphenazine]
- Relative aggregation compared to 'no compound' aggregation control: 4.37%
